{"source": "patent US8978468B2", "about": "“Nonvisual indication of an unwanted chemical in an ingestible substance” (priority 2009, dated 2015)", "origin": "cited, not measured here", "tested_on": "rat", "data": [{"substance": "N-methylmethanamine", "values": [{"measurement": "Toxic Dose oral-rat LD50", "result": "oral-rat LD50 698 mg/kg"}]}]}
